Assay results published in patent US20250248992A1, “INNATE IMMUNE-ACTIVATING DRUG AND USE THEREOF” (LUODA BIOPHARMA (SUZHOU) CO., LTD., priority 2021, published 2025).

Test system: VSV-GFP
Test: Inhibition of VSV-GFP infection in A549 cells
Assay type: cell-based, Vesicular stomatitis virus (VSV)

Nc1ccc2c(N)c3ccccc3nc2c1
SI (Selection Index): 135.1
